System: pigeons
Assay: Vomiting in pigeons (oral TD50)

“3-hydroxy-4,15-diacetoxy-12,13-epoxy-Δ^9 -trichothecene” was tested, and the vomiting was “cause vomiting”.
With “3-hydroxy-4,15-diacetoxy-8-(3-methyl butyryloxy)-12,13-epoxy-Δ^9 -trichothecene” the vomiting was “cause vomiting”.
